# “Also recorded” adds a separate entry of the source.
# Assay: Exposure to iron (II), mechanism of action
# Details: exposed to iron (II); listed as methylfuran 5b
compound,measurement,value
Cc1ccc([C@@H]2O[C@@H]3O[C@@]4(C)CC[C@H]5[C@H](C)CC[C@@H]([C@H]2C)[C@@]35OO4)o1 [Monomer 17b],evidence for reaction intermediates with iron (II),a C4 -hydroxylated product was isolated; also recorded: rearrangement of hexamethyl Dewar benzene into hexamethylbenzene was observed

# Source: patent US6160004A, “C-10 carbon-substituted artemisinin-like trioxane compounds having antimalarial, antiproliferative and antitumor activities” (priority 1998, dated 2000)
